Data on 16 molecules can be found in patent US20040072907A1, “Antipicornaviral compounds, compositions containing them, and methods for their use” (priority 1997, published 2004).

Type in all cases: cell-based, human rhinovirus
Common to all, as to settings: CC50 divided by EC50

The subject of one data set is HRV serotype-14. The data set is described as follows: Antirhinoviral HI-HeLa cell culture assay (XTT cell protection), HRV-14. The procedure: (§1) In the Cell Protection Assay, the ability of compounds to protect cells against HRV infection was measured by the XTT dye reduction method. This method is described in Weislow, O. S., Kiser, R., Fine, D. L., Bader, J., Shoemaker, R. H., Boyd, M. R., J. Natl. Cancer Inst. 1989, 81, 577-586, the disclosure of which is incorporated herein by reference.
(§2) Infected or mock-infected cells were resuspended at 8×10^5 cells per mL and incubated with appropriate concentrations of compounds of formula I. Two days later, XTT/PMS was added to test plates, and the amount of formazan produced was quantified spectrophotometrically at 450/650 nm. […] The therapeutic index (TI) was calculated by dividing the CC50 by the EC50.
(§3) All strains of human rhinovirus (HRV) for use in this assay were purchased from American Type Culture Collection (ATCC) except for HRV serotype-14, which was produced from the infectious cDNA clone constructed and supplied to Applicants by Dr. Robert Rueckert at the Institute for Molecular Virology, University of Wisconsin, Madison, Wis. HRV stocks were propagated, and viral assays were performed in HI-HeLa cells (ATCC). Cells were grown in Minimal Essential Medium, available from Life Technologies, with 10% fetal bovine serum.
(§4) The compounds were tested against control compounds WIN 51711, WIN 52084, and WIN 54954, all obtained from Sterling-Winthrop Pharmaceuticals, and control compound Pirodavir, obtained from Janssen Pharmaceuticals. Antiviral data obtained for the test compounds are shown in Table 2 where all data are for HRV serotype-14 unless otherwise noted in parentheses.

The next data set concerns HRV serotype 2. As to the kind of experiment: Antirhinoviral HI-HeLa cell culture assay (XTT cell protection), HRV-2. As to the method:
as §1, §2, §3, §4

Another data set concerns HRV serotype 1A. As to the kind of experiment: Antirhinoviral HI-HeLa cell culture assay (XTT cell protection), HRV-1A. As to the method:
as §1, §2
(§5) All strains of human rhinovirus (HRV) for use in this assay were purchased from American Type Culture Collection (ATCC) except for HRV serotype-14, which was produced from the infectious cDNA clone constructed and supplied to Applicants by Dr. Robert Rueckert at the Institute for Molecular Virology, University of Wisconsin, Madison, Wis. HRV stocks were propagated, and viral assays were performed in HI-HeLa cells (ATCC). Cells were grown in Minimal Essential Medium, available from Life Technologies, with 10% fetal bovine serum. […]
(In general: Tetrazolium assays rely on reduction of a dye to a coloured formazan, in cell work by metabolically active cells.)

The next data set relates to HRV serotype 10. As to the kind of experiment: Antirhinoviral HI-HeLa cell culture assay (XTT cell protection), HRV-10. As to the method:
as §1, §2, §5

For `CCOC(=O)/C=C/[C@H](CCC(N)=O)NC(=O)[C@@H](CC(=O)[C@H](CC(C)C)NC(=O)SCC)Cc1ccccc1` [Compound 2, Ethyl-3-(EtSCO-L-LeuΨ[COCH2]-L-Phe-L-Gln)-E-Propenoate], the results for the “TI (therapeutic index)” value with HRV serotype-14 and in the data set with HRV serotype 2 were above 1333 and above 178, respectively.
For `CC(C)CC(NC(=O)SCc1ccccc1)C(=O)CC(Cc1ccccc1)C(=O)NC(C=CC(=O)N1CCc2ccccc21)CCC(N)=O` [Compound 3, (2,3-Dihydroindole)-3-(BnSCO-L-LeuΨ[COCH2]-L-Phe-L-Gln)-E-Propenamide], the “TI (therapeutic index)” value with HRV serotype-14 is reported as 26.
For `CCOC(=O)/C=C/[C@H](CCC(N)=O)NC(=O)[C@@H](CC(=O)[C@@H](NC(=O)SCC)C(C)C)Cc1ccccc1` [Compound 4, Ethyl-3-(EtSCO-L-ValΨ[COCH2]-L-Phe-L-Gln)-E-Propenoate], the entries for the “TI (therapeutic index)” value with HRV serotype-14 and in the data set on HRV serotype 2 were above 3200 and above 640, respectively.
Take `CCOC(=O)/C=C/C(CCC(N)=O)NC(=O)C(CC(=O)C(NC(=O)SCc1ccccc1)C(C)C)Cc1ccccc1` [Compound 5, Ethyl-3-(BnSCO-L-ValΨ[COCH2]-L-Phe-L-Gln)-E-Propenoate]: the “TI (therapeutic index)” value in the data set on HRV serotype-14 is reported as above 1730.
On the same count and under the same terms, as for `CCOC(=O)/C=C/C(CCC(N)=O)NC(=O)C(CC(=O)C(CC(C)C)NC(=O)SCc1ccccc1)Cc1ccccc1` [Compound 6, Ethyl-3-(BnSCO-L-LeuΨ[COCH2]-L-Phe-L-Gln)-E-Propenoate], the figure is above 147; as for `CCOC(=O)/C=C/[C@H](CCC(N)=O)NC(=O)[C@@H](CC(=O)[C@H](CC(C)C)NC(=O)SC1CCCC1)Cc1ccccc1` [Compound 8, Ethyl-3-(CyPentylSCO-L-LeuΨ[COCH2]-L-Phe-L-Gln)-E-Propenoate], above 526.
For the molecule `CCOC(=O)/C=C/[C@H](CCC(N)=O)NC(=O)[C@@H](CC(=O)[C@@H](NC(=O)SCC)C(C)C)Cc1ccc(C)cc1` [Compound 10, Ethyl-3-(EtSCO-L-ValΨ[COCH2]-L-(p-CH3)Phe-L-Gln)-E-Propenoate], the “TI (therapeutic index)” value with HRV serotype-14 was above 91; in the data set with HRV serotype 2, above 57.
Turning to `CCOC(=O)/C=C/C(CCC(N)=O)NC(=O)C(CC(=O)C(NC(=O)SC1CCCC1)C(C)C)Cc1ccc(C)cc1` [Compound 11, Ethyl-3-(CyPentylSCO-L-ValΨ[COCH2]-L-(p-CH3)Phe-L-Gln)-E-Propenoate], the “TI (therapeutic index)” value in the data set on HRV serotype 1A is reported as above 18; in the data set on HRV serotype-14, above 500; in the data set with HRV serotype 10 it was above 50; in the data set on HRV serotype 2, above 25.
As to `CCOC(=O)/C=C/C(CCC(N)=O)NC(=O)C(CC(=O)C(Cc1ccccc1)NC(=O)SC1CCCC1)Cc1ccc(C)cc1` [Compound 12, Ethyl-3-(CyPentylSCO-L-PheΨ[COCH2]-L-(p-CH3)Phe-L-Gln)-E-Propenoate], the “TI (therapeutic index)” value in the data set with HRV serotype-14 was above 7.
Same read-out and setting: as for `CCOC(=O)/C=C/[C@H](CCC(N)=O)NC(=O)[C@@H](CC(=O)[C@@H](NC(=O)SCC)C(C)C)Cc1ccc(C(F)(F)F)cc1` [Compound 15, Ethyl-3-(EtSCO-L-ValΨ[COCH2]-L-(p-CF3)Phe-L-Gln)-E-Propenoate], the figure is above 15; as for `CCOC(=O)/C=C/C(CCC(N)=O)NC(=O)C(CC(=O)C(Cc1ccccc1)NC(=O)SC1CCCC1)Cc1ccc(F)cc1` [Compound 18, Ethyl-3-(CyPentylSCO-L-PheΨ[COCH2]-L-(p-F)Phe-L-Gln)-E-Propenoate], above 6.
For the molecule `CCOC(=O)/C=C/C(CCC(N)=O)NC(=O)C(CC(=O)C(CC(C)C)NC1CCCC1)Cc1ccc(F)cc1` (stereo not shown) [Compound 19], the “TI (therapeutic index)” value was above 5 in the data set on HRV serotype 1A, above 10 with HRV serotype-14, above 1.8 in the data set on HRV serotype 10 and above 4 with HRV serotype 2.
Regarding `CCOC(=O)c1ccc(OCCC2CCN(c3ccc(C)nn3)CC2)cc1` [Pirodavir, reference compound], the “TI (therapeutic index)” value with HRV serotype-14 is above 300.
Same read-out and setting: as for `Cc1cc(CCCCCCCOc2ccc(C3=NCCO3)cc2)on1` [WIN 51711, reference compound], the figure is above 77; as for `Cc1cc(CCCCCCCOc2ccc(C3=N[C@@H](C)CO3)cc2)on1` [WIN 52084, reference compound], above 143; as for `Cc1cc(CCCCCOc2c(Cl)cc(C3=NCCO3)cc2Cl)on1` [WIN 54954, reference compound], above 30.
